Measured values from several laboratories, pooled; numbers as filed in NIAID ChemDB.

Shared fields: tests in culture; agent: Aspergillus niger; read-out: inhibition

Percent inhibition refers to the dose given; in toxicity tests it is the harm to the cells. Neighbouring rows are from separate reports. An empty or dashed field is not shown.

smiles | read by | tested at | strain or isolate | value
COC1OC(C)Cc2oc3cc(O)c(O)c(C(=O)O)c3c(=O)c21 | absorbance | 200 µg/mL |  | 0%
C/C(=N\NC(=S)Nc1cccc([N+](=O)[O-])c1)c1c(O)ccc2c(C)cc(=O)oc12 | agar diffusion / agar | 25 µg/mL |  | 56.66%
COc1ccccc1-[n+]1noc([O-])c1C(=O)CSc1nc2ccccc2[nH]1 | agar diffusion | 20 µg/mL |  | 0%
CSc1ccc(C2CC(c3cccc([N+](=O)[O-])c3)=NN2c2ccccc2)cc1 | broth dilution | 2000 µg/mL | NCIM 596 | 65.16%
COC(C)/C=C/c1coc2cc(O)c(O)cc2c1=O | absorbance | 200 µg/mL |  | 0%
N#C/C(=C1/Nc2ccccc2C1=O)c1c[nH]c2ccccc12 |  | 400 µg/mL | ATCC 1015 | 59.7%
CS(=O)(=O)c1ccc(C2CC(c3ccc(Cl)cc3)=NN2c2ccccc2)cc1 | broth dilution | 2000 µg/mL | NCIM 596 | 97.54%
O=C(CSc1nc2ccccc2[nH]1)c1c([O-])on[n+]1-c1ccccc1 | agar diffusion | 20 µg/mL |  | 0%
Cc1cc(C=Nc2ccc(N=Cc3cc(C)cc(/C=N/Nc4nc5ccccc5s4)c3O)cc2)c(O)c(/C=C/Nc2nc3ccccc3s2)c1 | turbidity | 10 µg/mL |  | 7.55%
COc1cc(Cl)ccc1-[n+]1noc([O-])c1C(=O)CSc1nc2ccccc2[nH]1 | agar diffusion | 20 µg/mL |  | 0%
CS(=O)(=O)c1ccc(C2CC(c3ccccc3)=NN2c2ccccc2)cc1 | broth dilution | 2000 µg/mL | NCIM 596 | 47.2%
O=C1C(O)C(CO)OC(Oc2c[nH]c3ccccc23)C1O |  | 400 µg/mL | ATCC 1015 | 40%
CSc1ccc(C2CC(c3ccc(Br)cc3)=NN2c2ccccc2)cc1 | broth dilution | 2000 µg/mL | NCIM 596 | 88.54%
O=C(CSc1nc2ccccc2[nH]1)c1c([O-])on[n+]1-c1ccc(Br)cc1 | agar diffusion | 20 µg/mL |  | 0%
O=S(=O)(O)O/N=C(\Cc1cn(S(=O)(=O)O)c2ccccc12)SC1OC(CO)C(O)C(O)C1O |  | 400 µg/mL | ATCC 1015 | 59.1%
CSc1ccc(C2CC(c3cccc(N)c3)=NN2c2ccccc2)cc1 | broth dilution | 2000 µg/mL | NCIM 596 | 84.37%

2 of the rows above, restated:

| smiles | read by | tested at | strain or isolate | value |
|---|---|---|---|---|
| O=C(CSc1nc2ccccc2[nH]1)c1c([O-])on[n+]1-c1ccc(Br)cc1 | agar diffusion | 20 µg/mL |  | 0% |
| CSc1ccc(C2CC(c3cccc([N+](=O)[O-])c3)=NN2c2ccccc2)cc1 | broth dilution | 2000 µg/mL | NCIM 596 | 65.16% |